Source: patent US20080119471A1, “Piperazine urea derivatives for the treatment of endometriosis” (priority 2004, published 2008)

Tested on: surgically induced endometriosis in intact cycling rats
Conditions: rat, 50 mg/kg, 4 weeks, in comparison to the vehicle control (FIG. 4)

## C[C@@H]1CN(Cc2ccc(F)cc2)CCN1C(=O)COc1ccc(Cl)cc1NC(N)=O [(2R)-1-((4-chloro-2-(ureido)phenoxy)methyl)carbonyl-2-methyl-4-(4-fluorobenzyl)piperazine]
  area and volume of peritoneal endometriotic lesions: reduce effects on area and volume of peritoneal endometriotic cysts in rat
